Measurements reported in PubChem BioAssay AID504761 (Drosophila RNAi Screening Center, 2011).

Assay: 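Insect host genes that dengue virus relies on to spread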 (primary screen)
Cell system: D.Mel-2 cells from Drosophila
Knock-down reagent: long dsRNA against Drosophila genes
Treatment: infection with dengue virus type 2; dose and infection time not stated
Measurement: 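Cells stained for dengue envelope protein and imaged; percent of infected cells per well on duplicate plates, ranked by infection, with stained nuclei counted for cell number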
Direction: infection score: higher = more virus-infected cells; cell count: higher = more cells in the well
Rule for the call: 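Very low infection ranking in both replicate wells (chance probability at most 0.065), then a retest showing infection dropped 1.5-fold or more at p below 0.05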
Calls: active = confirmed: knock-down lowers infection; inactive = not picked or not confirmed
The deposit covers about 22,000 reagents; this is a random part of those that have a named target and a result. In the full data, 116 (0.52%) were called active. 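Calls depend on retest data that are not deposited; infection was ranked per plate without normalising between plates; the unit of the infection score is not given.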 Raw values are not corrected between plates. A number with no mark means an inactive call. The numbers tell different reagents against one gene apart. Further read-outs or replicates are left out here. Not given: the amount of reagent, the time to read-out.

no.	gene	reagent no.	infection score, replicate 1	infection score, replicate 2	cell count, replicate 1
1	veli	1	0.96	5.91	6231
2	veli	2	8.17	6.49	6184
3	Vang (Van Gogh)	1	7.35	7.98	6697
4	Meics (Meiotic central spindle)	1	1.2	6.24	6609
5	Meics (Meiotic central spindle)	2	15.3	12.2	5692
6	aub (aubergine)	1	16.5	7.54	5804
7	aub (aubergine)	2	2.73	8.18	6455
8	crol (crooked legs)	1	15.5	9.34	6054
9	crol (crooked legs)	2	9.27	17.1	6030
10	crol (crooked legs)	3	5.22	12.3	6765
11	Mal-A6 (Maltase A6)	1	16.3	10.2	5605
12	Mal-A6 (Maltase A6)	2	14.3	22.4	4513

Next part, starting with the last 2 of the part before.
no.	gene	reagent no.	infection score, replicate 1	infection score, replicate 2	cell count, replicate 1
11	Mal-A6 (Maltase A6)	1	16.3	10.2	5605
12	Mal-A6 (Maltase A6)	2	14.3	22.4	4513
13	Nup205 (Nucleoporin 205kD)	1	9.58	1.51	5742
14	Parg (Poly(ADP-ribose) glycohydrolase)	1	7.06	13.5	6301
15	nod (no distributive disjunction)	1	3.26	3.08	5827
16	nod (no distributive disjunction)	2	2.25	0.88	6137
17	CG30110	1	2.2	1.23	5272
18	CG34461	1	0.42	5.3	6261
19	Ccdc39 (Coiled-coil domain containing protein 39)	1	1.93	3.94	6882
20	smg (smaug)	1	13.6	26.1	4810
21	smg (smaug)	2	13.2	9.83	4946
22	Gr10b (Gustatory receptor 10b)	1	6.93	9.77	5862
23	Gr10b (Gustatory receptor 10b)	2	20.9	26.4	5973
